Data source: PubChem BioAssay AID624099 (ICCB-Longwood, 2012)

Assay: 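Knock-downs relieving repression by E2 of an HPV18 LCR luciferase reporter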 (primary screen)
Cells: human C33A cervical carcinoma cells (HPV-negative) stably expressing BPV1 E2 and an HPV18 LCR luciferase reporter
Reagents: siRNA pool against human genes, 40 nM
Time to read-out: 72 h
Detection: 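HPV18 LCR reporter light per well, converted to plate-wise z-scores that exclude control wells, and averaged over triplicate plates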
Reading the numbers: mean z-score and z-score: higher = stronger reporter signal, weaker E2 silencing
Rule for the call: 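Hit if mean z-score reaches 2 and two or more of three replicate z-scores also reach 2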
Shown is one part, drawn at random, of about 21,000 deposited reagents. Over the whole deposit, 497 (2.4%) got an active call. 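Higher z means weaker E2 silencing; only reporter increases were scored, and knock-downs that hurt cell survival may mask genuine repressor factors.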

{"Gene":"LOC84843 (retired record)","mean z-score":-0.36,"z-score, replicate A":-0.11,"z-score, replicate B":-0.66,"z-score, replicate C":-0.31,"call":"inactive"}
{"Gene":"ICMT-DT","mean z-score":0.21,"z-score, replicate A":0.06,"z-score, replicate B":0.29,"z-score, replicate C":0.27,"call":"inactive"}
{"Gene":"SLC15A3","mean z-score":-0.33,"z-score, replicate A":-0.25,"z-score, replicate B":-0.53,"z-score, replicate C":-0.22,"call":"inactive"}
{"Gene":"PJA1","mean z-score":1.24,"z-score, replicate A":1.25,"z-score, replicate B":1.42,"z-score, replicate C":1.05,"call":"inactive"}
{"Gene":"LOC400320 (retired record)","mean z-score":-0.3,"z-score, replicate A":-0.11,"z-score, replicate B":-0.58,"z-score, replicate C":-0.22,"call":"inactive"}
{"Gene":"RAB44","mean z-score":-0.09,"z-score, replicate A":-0.26,"z-score, replicate B":-0.25,"z-score, replicate C":0.24,"call":"inactive"}
{"Gene":"ADGRB3","mean z-score":0.36,"z-score, replicate A":0.39,"z-score, replicate B":0.52,"z-score, replicate C":0.17,"call":"inactive"}
{"Gene":"LINC02692","mean z-score":1.44,"z-score, replicate A":1.82,"z-score, replicate B":1.23,"z-score, replicate C":1.27,"call":"inactive"}
{"Gene":"AUP1","mean z-score":0.43,"z-score, replicate A":0.61,"z-score, replicate B":0.1,"z-score, replicate C":0.59,"call":"inactive"}
{"Gene":"ACOX2","mean z-score":-1.08,"z-score, replicate A":-1.11,"z-score, replicate B":-1.05,"z-score, replicate C":-1.08,"call":"inactive"}
{"Gene":"WIPI2","mean z-score":0.23,"z-score, replicate A":0.43,"z-score, replicate B":0.1,"z-score, replicate C":0.15,"call":"inactive"}
{"Gene":"METTL6","mean z-score":-1.19,"z-score, replicate A":-1.16,"z-score, replicate B":-1.12,"z-score, replicate C":-1.3,"call":"inactive"}
{"Gene":"RNF141","mean z-score":-0.48,"z-score, replicate A":-0.74,"z-score, replicate B":-0.29,"z-score, replicate C":-0.4,"call":"inactive"}
{"Gene":"MFSD2B","mean z-score":0.06,"z-score, replicate A":0.03,"z-score, replicate B":0.37,"z-score, replicate C":-0.21,"call":"inactive"}

Already shown: an excerpt of the list.
{"Gene":"LOC400320 (retired record)","mean z-score":-0.3,"z-score, replicate A":-0.11,"z-score, replicate B":-0.58,"z-score, replicate C":-0.22,"call":"inactive"}
{"Gene":"RAB44","mean z-score":-0.09,"z-score, replicate A":-0.26,"z-score, replicate B":-0.25,"z-score, replicate C":0.24,"call":"inactive"}
